Anti-infective test results gathered from many reports (values: NIAID ChemDB through PubChem).

All rows: tests in culture; agent: Aspergillus niger; read-out: MIC100

MIC50, MIC90 and the like: level of inhibition, or share of isolates inhibited. Rows are shuffled and stem from different studies.

structure	strain	value
O=C1CSC(N2N=C(c3ccc(F)cc3)CC2c2cc3ccccc3nc2Cl)=N1	MTCC 282	50 µg/mL
CC(=O)Nc1ccc(OCC(=O)N2N=C(c3nc4ccccc4[nH]3)CC2c2ccccc2O)cc1	MTCC 282	500 µg/mL
Clc1ccc(-c2n[nH]c(COc3ncnc4ccccc34)n2)cc1	MTCC 282	12.5 µg/mL
CC(=O)Nc1ccc(OCC(=O)N2N=C(c3nc4ccccc4[nH]3)CC2c2ccccc2[N+](=O)[O-])cc1	MTCC 282	50 µg/mL
CN1CCN(c2nc3ccc4c(ccc(=O)n4C)c3s2)CC1	MTCC 282	250 µg/mL
Cc1ccc(N2C(=O)C(Cl)C23C(=O)Nc2ccccc23)cc1	MTCC 343	22 µg/mL
Cn1c(=O)ccc2c3sc(N4CCN(Cc5ccccc5)CC4)nc3ccc21	MTCC 282	500 µg/mL
O=C1CSC(N2N=C(c3ccccc3[N+](=O)[O-])CC2c2cc3ccccc3nc2Cl)=N1	MTCC 282	100 µg/mL
CC(=O)Nc1ccc(S(=O)(=O)N(n2sc3ccccc3c2=O)S(=O)(=O)c2ccc(NC(C)=O)cc2)cc1	ATCC 6275	>100 µg/mL
Fc1ccc(-c2n[nH]c(COc3nc(C(F)(F)F)nc4ccccc34)n2)cc1	MTCC 282	25 µg/mL
CC(=O)Nc1ccc(OCC(=O)N2N=C(c3nc4ccccc4[nH]3)CC2c2ccc(Cl)cc2)cc1	MTCC 282	50 µg/mL
Fc1ccc(-c2n[nH]c(COc3ncnc4ccccc34)n2)cc1	MTCC 282	12.5 µg/mL
O=C1C(Cl)C2(C(=O)Nc3ccccc32)N1c1ccc([N+](=O)[O-])cc1	MTCC 343	24 µg/mL
c1csc(-c2n[nH]c(COc3ncnc4ccccc34)n2)c1	MTCC 282	6.25 µg/mL
O=C1CSC(N2N=C(c3cccc([N+](=O)[O-])c3)CC2c2cc3ccccc3nc2Cl)=N1	MTCC 282	100 µg/mL
CC(=O)Nc1ccc(S(=O)(=O)N(n2sc3ccc(C)cc3c2=O)S(=O)(=O)c2ccc(NC(C)=O)cc2)cc1	ATCC 6275	>100 µg/mL
Cc1ccccc1N1C(=O)C(Cl)C12C(=O)Nc1c(Br)cc(Br)cc12	MTCC 343	17 µg/mL
Nc1ccc(S(=O)(=O)N(n2sc3ccccc3c2=O)S(=O)(=O)c2ccc(N)cc2)cc1	ATCC 6275	>100 µg/mL
COc1ccc(-c2n[nH]c(COc3ncnc4ccccc34)n2)cc1	MTCC 282	6.25 µg/mL
CC(=O)Nc1ccc(OCC(=O)N2N=C(c3nc4ccccc4[nH]3)CC2c2ccc([N+](=O)[O-])cc2)cc1	MTCC 282	25 µg/mL
COc1ccc(-c2n[nH]c(COc3nc(C(F)(F)F)nc4ccccc34)n2)cc1OC	MTCC 282	12.5 µg/mL
Cc1ccc(-c2nc3ccccc3c(=O)n2-c2ccc(C(=O)NN3C(=O)/C(=C/c4cccc([N+](=O)[O-])c4)SC3c3ccc(F)cc3)cc2)cc1	MTCC 282	50 µg/mL
CC(=O)Nc1ccc(OCC(=O)N2N=C(c3nc4ccccc4[nH]3)CC2c2cccc(Br)c2)cc1	MTCC 282	250 µg/mL
Cc1ccc(-c2nc3ccccc3c(=O)n2-c2ccc(C(=O)NN3C(=O)/C(=C/c4cccc(Br)c4)SC3c3ccc(F)cc3)cc2)cc1	MTCC 282	100 µg/mL
COc1ccc(N2CCN(c3nc4ccc5oc(=O)ccc5c4s3)CC2)cc1	MTCC 282	100 µg/mL
O=C1C(Cl)C2(C(=O)Nc3c(Br)cc(Br)cc32)N1c1ccccc1[N+](=O)[O-]	MTCC 343	14 µg/mL
CC(=O)Nc1ccc(OCC(=O)N2N=C(c3nc4ccccc4[nH]3)CC2c2ccc(O)cc2)cc1	MTCC 282	500 µg/mL
CC(=O)Nc1ccc(S(=O)(=O)Nn2sc3ccccc3c2=O)cc1	ATCC 6275	>100 µg/mL
Cc1ccc(-c2nc3ccccc3c(=O)n2-c2ccc(C(=O)NN3C(=O)/C(=C/c4cccc(O)c4)SC3c3ccc(F)cc3)cc2)cc1	MTCC 282	1000 µg/mL
CC(C)N1CCN(c2nc3ccc4oc(=O)ccc4c3s2)CC1	MTCC 282	100 µg/mL
O=C1CSC(N2N=C(c3ccccc3Cl)CC2c2cc3ccccc3nc2Cl)=N1	MTCC 282	50 µg/mL
Cn1c(=O)ccc2c3sc(N4CCN(c5ccccc5Cl)CC4)nc3ccc21	MTCC 282	100 µg/mL
CC(=O)Nc1ccc(OCC(=O)N2N=C(c3nc4ccccc4[nH]3)CC2c2ccccc2C)cc1	MTCC 282	500 µg/mL
Cn1c(=O)ccc2c3sc(N4CCC(Cc5ccccc5)CC4)nc3ccc21	MTCC 282	250 µg/mL
Cc1nc(OCc2nc(-c3ccc(O)cc3)n[nH]2)c2ccccc2n1	MTCC 272	25 µg/mL
Cc1ccc(-c2nc3ccccc3c(=O)n2-c2ccc(CONN)cc2)cc1	MTCC 282	>1000 µg/mL
FC(F)(F)c1nc(OCc2nc(-c3ccc(Cl)cc3)n[nH]2)c2ccccc2n1	MTCC 282	12.5 µg/mL
O=C1C(Cl)C2(C(=O)Nc3c(Br)cc(Br)cc32)N1c1ccccc1	MTCC 343	14 µg/mL

A second listing of 4 rows from above:

structure	strain	value
CC(=O)Nc1ccc(S(=O)(=O)N(n2sc3ccccc3c2=O)S(=O)(=O)c2ccc(NC(C)=O)cc2)cc1	ATCC 6275	>100 µg/mL
COc1ccc(-c2n[nH]c(COc3nc(C(F)(F)F)nc4ccccc34)n2)cc1OC	MTCC 282	12.5 µg/mL
O=C1C(Cl)C2(C(=O)Nc3c(Br)cc(Br)cc32)N1c1ccccc1[N+](=O)[O-]	MTCC 343	14 µg/mL
Fc1ccc(-c2n[nH]c(COc3nc(C(F)(F)F)nc4ccccc34)n2)cc1	MTCC 282	25 µg/mL